Compound potency records, mixed from different reports. Data source: NIAID ChemDB in PubChem.

Common to all: tests in culture; species: Mycobacterium avium complex

Neighbouring rows are from separate reports.

CCCCNC(=O)OCCN=c1ssc2ccccc12 ; strain or isolate: AN3 ; measure: MIC ; result: 2 µg/mL
C[C@@H](O)[C@H]1C(=O)N2C(C(=O)O)=C(SCCN=CN)C[C@H]12 ; strain or isolate: CIPT 140310003 (rough) ; measure: MIC ; result: >10 µg/mL
CO[C@H]1/C=C/O[C@@]2(C)Oc3c(C)c(O)c4c(O)c(c5c(c4c3C2=O)NC2(CCN(CC(C)C)CC2)N=5)=NC(=O)/C(C)=C\C=C\[C@H](C)[C@H](O)[C@@H](C)[C@@H](O)[C@@H](C)[C@H](OC(C)=O)[C@@H]1C ; strain or isolate: N-265 (HIV-) ; measure: MIC ; result: 0.4 µg/mL
CC[C@H]1OC(=O)[C@H](C)[C@@H](OC(=O)C(C)C)[C@H](C)[C@@H](O[C@@H]2O[C@H](C)C[C@H](N(C)C)[C@H]2O)C(C)(O)C[C@@H](C)/C(=N\OCCCOc2ccccc2)[C@H](C)[C@@H](O)[C@]1(C)O ; strain or isolate: 20039 (clarithromycin-susceptible) ; measure: MIC ; result: 3.13 µg/mL
CO[C@H]1/C=C/O[C@@]2(C)Oc3c(C)c(O)c4c(=O)c(c5oc6cc(N7CCN(CC(C)C)CC7)cc(=O)c6nc5c4c3=C2O)NC(=O)/C(C)=C\C=C\[C@H](C)[C@H](O)[C@@H](C)[C@@H](O)[C@@H](C)[C@H](OC(C)=O)[C@@H]1C ; strain or isolate: N-316 (HIV-) ; measure: MIC ; result: 0.0313 µg/mL
CC[C@H]1OC(=O)[C@H](C)[C@@H](OC2C[C@@](C)(OC)[C@@H](O)[C@H](C)O2)[C@H](C)[C@@H](O[C@@H]2O[C@H](C)C[C@H](N(C)C)[C@H]2O)C(C)(O)C[C@@H](C)/C(=N\OCCCCc2ccccc2)[C@H](C)[C@@H](O)[C@]1(C)O ; strain or isolate: 20096 ; measure: MIC ; result: 3.13 µg/mL
CC1(C)N=C(N)N=C(N)N1OCCCOc1cc(Cl)c(Cl)cc1Cl ; strain or isolate: 3009 ; measure: MIC ; result: 4 µg/mL
CCCCCCCCC(=O)O[C@H]1[C@H](C)[C@@H](O[C@@H]2O[C@H](C)C[C@H](N(C)C)[C@H]2O)C(C)(O)C[C@@H](C)/C(=N\OCCCOc2ccccc2)[C@H](C)[C@@H](O)[C@](C)(O)[C@@H](CC)OC(=O)[C@@H]1C ; strain or isolate: 20039 (clarithromycin-susceptible) ; measure: MIC ; result: 6.25 µg/mL
Nc1ccc(S(=O)(=O)c2ccc(N)cc2)cc1 ; strain or isolate: DW29 ; measure: MIC ; result: 64 µg/mL
CC1(C)S[C@@H]2[C@H](NC(=O)C(C(=O)O)c3ccccc3)C(=O)N2[C@H]1C(=O)O ; strain or isolate: CIPT 140310006 ; measure: MIC ; result: 25 µg/mL
CCCCNC(=O)OCCn1sc2ccccc2c1=O ; strain or isolate: AN1 ; measure: MIC ; result: 16 µg/mL
CC1(C)N=C(N)N=C(N)N1OCCCOc1cc(Cl)c(Cl)cc1Cl ; strain or isolate: DW5 ; measure: MIC ; result: 16 µg/mL
CCOc1ccc(OCC)c(N(C)Cc2cnc3nc(N)nc(N)c3c2C)c1 ; strain or isolate: NJ3404 ; measure: MIC ; result: ≤0.13 µg/mL
CCCCCCCCNNC(=O)O[C@H]1[C@H](O[C@@H]2[C@@H](C)[C@H](O[C@H]3C[C@@](C)(OC)[C@@H](OC(C)=O)[C@H](C)O3)[C@@H](C)C(=O)O[C@H](CC)[C@@](C)(O)[C@H](O)[C@@H](C)/C(=N/OCCCC3CCCCC3)[C@H](C)CC2(C)O)O[C@H](C)C[C@@H]1N(C)C ; strain or isolate: 20092 (clarithromycin-resistant) ; measure: MIC ; result: 12.5 µg/mL
Cc1c(CNc2ccc3ccc4cccc5ccc2c3c45)cnc2nc(N)nc(N)c12 ; strain or isolate: NJ3404 ; measure: MIC ; result: ≤0.13 µg/mL
CCN=c1cc2n(-c3ccc(Cl)cc3)c3ccccc3nc-2cc1Nc1ccc(Cl)cc1 ; strain or isolate: 1017 ; measure: MIC ; result: 0.25 µg/mL
NC[C@H]1O[C@H](O[C@H]2[C@H](O)[C@@H](O[C@H]3O[C@H](CO)[C@@H](O)[C@H](N)[C@H]3O)[C@H](N)C[C@@H]2N)[C@H](O)[C@@H](O)[C@@H]1O ; strain or isolate: CIPT 140310012 ; measure: MIC ; result: 10 µg/mL
CC[C@H]1OC(=O)[C@H](C)[C@@H](O[C@H]2C[C@@](C)(OC)[C@@H](O)[C@H](C)O2)[C@H](C)[C@@H](O[C@@H]2O[C@H](C)C[C@H](N(C)C)[C@H]2O)[C@](C)(OC)C[C@@H](C)C(=O)[C@H](C)[C@@H](O)[C@]1(C)O ; strain or isolate: N-269 (HIV-) ; measure: MIC ; result: 1 µg/mL
COCc1c(CNc2ccc(OC)c(OC)c2)cnc2nc(N)nc(N)c12.O ; strain or isolate: NJ168 ; measure: MIC ; result: >13 µg/mL
CCNC(=O)OCCn1sc2ccccc2c1=S ; strain or isolate: ATCC 15769 ; measure: MIC ; result: 4 µg/mL
CC[C@H]1OC(=O)[C@H](C)[C@@H](OC2C[C@@](C)(OC)[C@@H](O)[C@H](C)O2)[C@H](C)[C@@H](O[C@@H]2O[C@H](C)C[C@H](N(C)C)[C@H]2O)C(C)(O)C[C@@H](C)/C(=N\OCCSc2ccccc2)[C@H](C)[C@@H](O)[C@]1(C)O ; strain or isolate: 20039 ; measure: MIC ; result: 1.56 µg/mL
O=c1c2ccccc2sn1CCO ; strain or isolate: AN3 ; measure: MIC ; result: 32 µg/mL
CCCCCCCCCCCCCCCCO/N=C1\[C@H](C)CC(C)(O)[C@H](O[C@@H]2O[C@H](C)C[C@H](N(C)C)[C@H]2O)[C@@H](C)[C@H](OC2C[C@@](C)(OC)[C@@H](O)[C@H](C)O2)[C@@H](C)C(=O)O[C@H](CC)[C@@](C)(O)[C@H](O)[C@H]1C ; strain or isolate: 20092 ; measure: MIC ; result: >50 µg/mL
CC(C)N=c1cc2n(-c3ccc(Cl)cc3)c3ccccc3nc-2cc1Nc1ccc(Cl)cc1 ; strain or isolate: 101 ; measure: MIC ; result: 0.25 µg/mL
CC[C@H]1OC(=O)[C@H](C)[C@@H](OC2C[C@@](C)(OC)[C@@H](O)[C@H](C)O2)[C@H](C)[C@@H](O[C@@H]2O[C@H](C)C[C@H](N(C)C)[C@H]2O)C(C)(O)C[C@@H](C)/C(=N\OCCCOc2ccccc2)[C@H](C)[C@@H](O)[C@]1(C)O ; strain or isolate: 20039 ; measure: MIC ; result: 1.56 µg/mL
CCCCCCCCO/N=C1\[C@H](C)CC(C)(O)[C@H](O[C@@H]2O[C@H](C)C[C@H](N(C)C)[C@H]2O)[C@@H](C)[C@H](O[C@H]2C[C@@](C)(OC)[C@@H](OC(C)=O)[C@H](C)O2)[C@@H](C)C(=O)O[C@H](CC)[C@@](C)(O)[C@H](O)[C@H]1C ; strain or isolate: 20039 (clarithromycin-susceptible) ; measure: MIC ; result: 1.56 µg/mL
OCCn1sc2ccccc2c1=S ; strain or isolate: AN1 ; measure: MIC ; result: 2 µg/mL
CCCCCCCCCCCCCCO/N=C1\[C@H](C)CC(C)(O)[C@H](O[C@@H]2O[C@H](C)C[C@H](N(C)C)[C@H]2O)[C@@H](C)[C@H](OC2C[C@@](C)(OC)[C@@H](O)[C@H](C)O2)[C@@H](C)C(=O)O[C@H](CC)[C@@](C)(O)[C@H](O)[C@H]1C ; strain or isolate: 20039 ; measure: MIC ; result: 50 µg/mL
COc1ccc(/C(C)=N/NC(N)=S)cc1 ; strain or isolate: 116 ; measure: MIC ; result: 16 µg/mL
CC(C)(C)NC(=O)OCCn1sc2ccccc2c1=O ; strain or isolate: ISS 486 ; measure: MIC ; result: >32 µg/mL
CC[C@H]1OC(=O)[C@H](C)[C@@H](OC2C[C@@](C)(OC)[C@@H](O)[C@H](C)O2)[C@H](C)[C@@H](O[C@@H]2O[C@H](C)C[C@H](N(C)C)[C@H]2O)C(C)(O)C[C@@H](C)/C(=N\OCCCCCc2ccccc2)[C@H](C)[C@@H](O)[C@]1(C)O ; strain or isolate: 20092 ; measure: MIC ; result: 6.25 µg/mL
CO[C@H]1/C=C/O[C@@]2(C)Oc3c(C)c(O)c4c(O)c(c5c(c4c3C2=O)NC2(CCN(CC(C)C)CC2)N=5)=NC(=O)/C(C)=C\C=C\[C@H](C)[C@H](O)[C@@H](C)[C@@H](O)[C@@H](C)[C@H](OC(C)=O)[C@@H]1C ; strain or isolate: K ; measure: MIC ; result: 0.5 µg/mL
Cc1c(CNc2ccc3ncccc3c2)cnc2nc(N)nc(N)c12 ; strain or isolate: NJ211 ; measure: MIC ; result: ≤0.13 µg/mL
CO[C@H]1/C=C/O[C@@]2(C)Oc3c(C)c(O)c4c(O)c(c5c(c4c3C2=O)NC2(CCN(CC(C)C)CC2)N=5)=NC(=O)/C(C)=C\C=C\[C@H](C)[C@H](O)[C@@H](C)[C@@H](O)[C@@H](C)[C@H](OC(C)=O)[C@@H]1C ; strain or isolate: 3009-4 ; measure: MIC ; result: 1 µg/mL
CC(C)(C)NC(=O)OCCn1sc2ccccc2c1=S ; strain or isolate: AN2 ; measure: MIC ; result: 4 µg/mL
Cc1ccc(Cl)cc1NCc1cnc2nc(N)nc(N)c2c1C ; strain or isolate: NJ168 ; measure: MIC ; result: ≤0.13 µg/mL
CC[C@H]1OC(=O)[C@H](C)[C@@H](O[C@H]2C[C@@](C)(OC)[C@@H](O)[C@H](C)O2)[C@H](C)[C@@H](O[C@@H]2O[C@H](C)C[C@H](N(C)C)[C@H]2O)[C@](C)(OC)C[C@@H](C)C(=O)[C@H](C)[C@@H](O)[C@]1(C)O ; strain or isolate: 20096 ; measure: MIC ; result: >50 µg/mL
C[C@@H]1CN(c2c(F)c(N)c3c(=O)c(C(=O)O)cn(C4CC4)c3c2F)C[C@H](C)N1 ; strain or isolate: Isolate 90-1295 ; measure: MBC ; result: 2 µg/mL
Cc1c(CNc2ccc(Cl)c3ccccc23)cnc2nc(N)nc(N)c12 ; strain or isolate: NJ211 ; measure: MIC ; result: ≤0.13 µg/mL
CCCCNC(=O)OCCn1sc2ccccc2c1=S ; strain or isolate: AN2 ; measure: MIC ; result: 4 µg/mL
C[C@@H]1CN(c2c(F)c(N)c3c(=O)c(C(=O)O)cn(C4CC4)c3c2F)C[C@H](C)N1 ; strain or isolate: N-238 (HIV-) ; measure: MIC ; result: 1 µg/mL
NNC(=O)c1ccncc1 ; strain or isolate: 13011 ; measure: MIC ; result: 0.63–0.8 µg/mL
CO[C@H]1/C=C/O[C@@]2(C)Oc3c(C)c(O)c4c(O)c(c5c(c4c3C2=O)NC2(CCN(CC(C)C)CC2)N=5)=NC(=O)/C(C)=C\C=C\[C@H](C)[C@H](O)[C@@H](C)[C@@H](O)[C@@H](C)[C@H](OC(C)=O)[C@@H]1C ; strain or isolate: CIPT 140310012 ; measure: MIC ; result: 0.1 µg/mL
CCCCO/N=C1\[C@H](C)CC(C)(O)[C@H](O[C@@H]2O[C@H](C)C[C@H](N(C)C)[C@H]2O)[C@@H](C)[C@H](OC2C[C@@](C)(OC)[C@@H](O)[C@H](C)O2)[C@@H](C)C(=O)O[C@H](CC)[C@@](C)(O)[C@H](O)[C@H]1C ; strain or isolate: 20039 ; measure: MIC ; result: 0.78 µg/mL

Repeating the final 6 entries:

| compound | strain or isolate | measure | result |
|---|---|---|---|
| Cc1c(CNc2ccc(Cl)c3ccccc23)cnc2nc(N)nc(N)c12 | NJ211 | MIC | ≤0.13 µg/mL |
| CCCCNC(=O)OCCn1sc2ccccc2c1=S | AN2 | MIC | 4 µg/mL |
| C[C@@H]1CN(c2c(F)c(N)c3c(=O)c(C(=O)O)cn(C4CC4)c3c2F)C[C@H](C)N1 | N-238 (HIV-) | MIC | 1 µg/mL |
| NNC(=O)c1ccncc1 | 13011 | MIC | 0.63–0.8 µg/mL |
| CO[C@H]1/C=C/O[C@@]2(C)Oc3c(C)c(O)c4c(O)c(c5c(c4c3C2=O)NC2(CCN(CC(C)C)CC2)N=5)=NC(=O)/C(C)=C\C=C\[C@H](C)[C@H](O)[C@@H](C)[C@@H](O)[C@@H](C)[C@H](OC(C)=O)[C@@H]1C | CIPT 140310012 | MIC | 0.1 µg/mL |
| CCCCO/N=C1\[C@H](C)CC(C)(O)[C@H](O[C@@H]2O[C@H](C)C[C@H](N(C)C)[C@H]2O)[C@@H](C)[C@H](OC2C[C@@](C)(OC)[C@@H](O)[C@H](C)O2)[C@@H](C)C(=O)O[C@H](CC)[C@@](C)(O)[C@H](O)[C@H]1C | 20039 | MIC | 0.78 µg/mL |

Two numbers with a dash give a range or band.